Measured values from several laboratories, pooled; numbers as filed in NIAID ChemDB.

Shared fields: tests in culture; agent: Mycobacterium tuberculosis

A number after MIC or MFC names an inhibition level or a share of isolates. Blank or dashed fields: not listed here. Inhibition is in % at the dose shown (toxicity tests: loss of growth or viability). Conditions beyond the fields shown may differ between rows. Two numbers with a dash give a range or band.

COc1ccc(/C=C/C(=O)c2ccc(F)cc2O)cc1 ; endpoint: MIC ; strain: H37Rv ; result: >12.5 µg/mL
Cc1ccc(CNCCNCc2ccccc2F)cc1 ; endpoint: MIC ; result: 50 µM
COc1cc2oc3cc(OC)c(OC)c(CC=C(C)C)c3c(=O)c2c(O)c1CC=C(C)C ; endpoint: MIC ; read by: resazurin ; strain: H37Ra ; result: >200 µg/mL
O=c1[nH]c2cc([N+](=O)[O-])ccc2c(O)c1N=Nc1ccccc1-c1ccccc1 ; endpoint: inhibition ; read by: resazurin ; strain: H37Rv ; tested at: 6.25 µg/mL ; result: 100%
CC/C(=C(\c1ccccc1)c1ccc(OCCN(C)C)cc1)c1ccccc1 ; endpoint: MIC ; read by: resazurin ; strain: H37Rv ; result: 3.125–6.25 µg/mL
O=c1cc(-c2ccc(Cl)c([N+](=O)[O-])c2)oc2ccccc12 ; endpoint: MIC ; strain: H37Rv ; result: >12.5 µg/mL
CC(=O)Oc1cc2oc3cc(=O)/c(=C(\C)O)c(CCC(C)C)c3c(O)c2c(=O)c1CCC(C)C ; endpoint: MIC ; read by: resazurin ; strain: H37Ra ; result: 3.12 µg/mL
Cc1c(Cl)cccc1N=Nc1c(O)c2ccc([N+](=O)[O-])cc2[nH]c1=O ; endpoint: MIC ; read by: resazurin ; strain: H37Rv ; result: <6.25 µg/mL
COc1ccc(CSc2ncnc3nc[nH]c23)cc1 ; endpoint: MIC ; strain: H37Ra ; result: >12.8 µg/mL
Nc1cc(=O)[nH]n1-c1ccccn1 ; endpoint: MIC ; strain: H37Rv ; result: 100 µg/mL
O=c1[nH]c2c([N+](=O)[O-])cccc2c(O)c1N=Nc1ccccc1[N+](=O)[O-] ; endpoint: inhibition ; read by: resazurin ; strain: H37Rv ; tested at: 6.25 µg/mL ; result: 80%
CC(=O)CC(=O)Nc1ccccn1 ; endpoint: MIC ; strain: H37Rv ; result: >100 µg/mL
Cc1ccc(C)c(Sc2ccncc2)c1 ; endpoint: inhibition ; strain: H37Rv ; tested at: 6.25 µg/mL ; result: 4%
CC(=O)c1c(C)[nH]c(C(=O)N/N=C/c2ccc(N(C)C)cc2)c1C ; endpoint: MIC ; read by: resazurin ; strain: H37Rv ; result: <6.25 µg/mL
O=C(O)CN(CCO)CCO ; endpoint: MIC ; strain: H37Rv ; result: >100 µg/mL
C[C@H](NCCNCC(c1ccccc1)c1ccccc1)[C@H](O)c1ccc(O)c(O)c1 ; endpoint: MIC ; result: 3.13 µM
CCCCCCCCSc1nc(Cl)nc2nc[nH]c12 ; endpoint: MIC ; strain: H37Ra ; result: >12.8 µg/mL
CO[C@H]1/C=C/O[C@@]2(C)Oc3c(C)c(O)c4c(O)c(c(/C=N/N5CCN(C)CC5)c(O)c4c3C2=O)NC(=O)/C(C)=C\C=C\[C@H](C)[C@H](O)[C@@H](C)[C@@H](O)[C@@H](C)[C@H](OC(C)=O)[C@@H]1C ; endpoint: MIC ; read by: resazurin ; strain: M-3 ; result: >2 µg/mL
O=C1C=CC(=O)C(Nc2cccc(O)c2)=C1 ; endpoint: MIC ; strain: H37Rv ; result: 50 µg/mL
O=C(NCCNC(=O)[C@H]1CCCN1)[C@H]1CCCN1 ; endpoint: inhibition ; read by: resazurin ; strain: H37Rv ; tested at: 6.25 µg/mL ; result: 13%
O=c1[nH]c2cc([N+](=O)[O-])ccc2c(O)c1N=Nc1ccccc1-c1ccccc1 ; endpoint: inhibition ; read by: resazurin ; strain: H37Rv ; tested at: 6.25 µg/mL ; result: 100%
COc1ccc2nc(-c3cccc(Cl)c3)ccc2c1 ; endpoint: MIC ; strain: H37Rv ; result: 100 µg/mL
N[C@@H]1[C@@H](O)[C@H](O[C@@H]2[C@@H](O)[C@@H](O[C@@H]3O[C@H](CO)[C@@H](O)[C@H](O)[C@H]3O)[C@@H](N)C[C@H]2N)O[C@H](CO)[C@H]1O.O=S(=O)(O)O ; endpoint: MIC ; read by: resazurin ; strain: H37Ra ; result: 2.5 µg/mL
C[C@H]1COc2c(N3CCN(C)CC3)c(F)cc3c(=O)c(C(=O)O)cn1c23 ; endpoint: MIC ; read by: resazurin ; strain: H37Rv ; result: 0.25 µg/mL
C1CN(SSN2CCOCC2)CCO1 ; endpoint: MIC ; strain: H37Rv ; result: >100 µg/mL
Cc1cccc(CSc2nc(=O)[nH]c3nc[nH]c23)c1 ; endpoint: inhibition ; strain: H37Rv ; tested at: 6.25 µg/mL ; result: 0%
COc1cc2oc3cc(O)c(CCC(C)C)c(O)c3c(=O)c2c(CCC(C)C)c1C(C)=O ; endpoint: MIC ; read by: resazurin ; strain: H37Ra ; result: 0.78 µg/mL
Fc1ccc(CCNCCNCCCc2ccccc2)cc1 ; endpoint: MIC ; result: 12.5 µM
O=c1[nH]c2cc([N+](=O)[O-])ccc2c(O)c1N=Nc1ccc(Cl)c(F)c1 ; endpoint: MIC ; read by: resazurin ; strain: H37Rv ; result: <6.25 µg/mL
O=C(O)c1cccc2c1sc1ccccc12 ; endpoint: MIC ; strain: H37Rv ; result: >100 µg/mL
CC(C)c1ccc2c(c1)CC[C@H]1[C@](C)(CNCCNCCc3ccc(F)cc3)CCC[C@]21C ; endpoint: MIC ; result: 25 µM
C=CCOc1cc2oc3cc(O)c(CCC(C)C)c(O)c3c(=O)c2c(CCC(C)C)c1OC ; endpoint: MIC ; read by: resazurin ; strain: M-3 ; result: 3.12 µg/mL
O=C1c2ccccc2C(=O)c2cc(Cl)ccc21 ; endpoint: MIC ; strain: H37Rv ; result: >100 µg/mL
CCCCCNCCNCCC1=CCCCC1 ; endpoint: MIC ; result: 25 µM
O=c1[nH]c2ccc(Cl)cc2c(O)c1N=Nc1ccc([N+](=O)[O-])cc1 ; endpoint: inhibition ; read by: resazurin ; strain: H37Rv ; tested at: 6.25 µg/mL ; result: 91%
CC(C)NC(C)C(=O)c1ccccc1 ; endpoint: MIC ; strain: H37Rv ; result: >100 µg/mL
COc1ccc(/C=C/C(=O)c2ccccn2)cc1 ; endpoint: MIC ; strain: H37Rv ; result: >12.5 µg/mL
CC(C)c1ccc(CNc2cc(N)ccc2O)cc1.Cl ; endpoint: MIC ; strain: H37Rv ; result: >100 µg/mL
CC(CNCCc1ccc(O)cc1)NC[C@@H]1CC[C@H]2C[C@@H]1C2(C)C ; endpoint: MIC ; result: 25 µM
Cc1cccc(N=Nc2c(O)c3ccc(Cl)cc3[nH]c2=O)c1 ; endpoint: inhibition ; read by: resazurin ; strain: H37Rv ; tested at: 6.25 µg/mL ; result: 70%
CCCCCCCCCCCNCCNCCc1ccccc1OC ; endpoint: MIC ; result: 25 µM
O=C(O)c1ccc[nH]1 ; endpoint: MIC ; strain: H37Rv ; result: >100 µg/mL
CCC1Cn2cc([N+](=O)[O-])nc2O1 ; endpoint: MIC ; strain: H37Rv-T3 (PA-824-resistant) ; result: >100 µM
CCN(CC)CCNc1ccc(OC)cc1 ; endpoint: MIC ; strain: H37Rv ; result: >100 µg/mL
O=c1cc(-c2ccc(I)cc2)oc2ccccc12 ; endpoint: MIC ; strain: H37Rv ; result: >12.5 µg/mL
Cc1cccc(Sc2nc(Cl)nc3nc[nH]c23)c1 ; endpoint: MIC ; strain: H37Ra ; result: >12.8 µg/mL
COc1ccc(CNCCNC[C@@H]2CC[C@H]3C[C@@H]2C3(C)C)cc1OC ; endpoint: MIC ; result: 50 µM
COc1cccc2c1oc1c(OC)cccc12 ; endpoint: MIC ; strain: H37Rv ; result: >100 µg/mL
COc1c(O)cc2oc3cc(O)c(CCC(C)C)c(O)c3c(=O)c2c1CCC(C)C ; endpoint: MIC ; read by: resazurin ; strain: H37Rv ; changes: MDR ; result: 1.56 µg/mL
Cc1ccc(N=Nc2c(O)c3ccc(Cl)c(Cl)c3[nH]c2=O)cc1 ; endpoint: inhibition ; read by: resazurin ; strain: H37Rv ; tested at: 6.25 µg/mL ; result: 54%
CCOC(=O)C(=O)c1ccccc1 ; endpoint: MIC ; strain: H37Rv ; result: >100 µg/mL
COc1ccc(C(=O)/C=C/c2ccncc2)cc1 ; endpoint: MIC ; strain: H37Rv ; result: >12.5 µg/mL
O=C1C=C(c2ccc(O)cc2)C(=O)C=C1c1ccc(O)cc1 ; endpoint: MIC ; strain: H37Rv ; result: 50 µg/mL
O=c1[nH]c2c(Cl)c(Cl)ccc2c(O)c1N=Nc1cccc(Cl)c1 ; endpoint: inhibition ; read by: resazurin ; strain: H37Rv ; tested at: 6.25 µg/mL ; result: 82%
COC(=O)c1cccc(-c2ccccc2N)c1 ; endpoint: MIC ; strain: H37Rv ; result: >100 µg/mL
CCCCCCCCCCCNCCNCCCCC ; endpoint: MIC ; result: 50 µM
Nc1c(I)cc(I)cc1I ; endpoint: MIC ; strain: H37Rv ; result: 100 µg/mL
N[C@@H]1CN(c2c(F)cc3c(=O)c(C(=O)O)cn([C@@H]4C[C@@H]4F)c3c2Cl)CC12CC2 ; endpoint: MIC90 ; read by: resazurin ; strain: Clinical strain ; changes: MDR (rifampicin- isoniazid-resistant) ; result: 0.0625 µg/mL
N#Cc1ccc(N=C=O)cc1 ; endpoint: MIC ; strain: H37Rv ; result: >100 µg/mL
O=[N+]([O-])c1cn2c(n1)OC[C@@H](OCc1ccc(OCc3ccccc3)cc1)C2 ; endpoint: MIC ; strain: H37Rv-5A1 (PA-824-resistant) ; result: >100 µM
O=C1c2ccccc2C(=O)c2ccccc21 ; endpoint: MIC ; strain: H37Rv ; result: >100 µg/mL
CCOc1cc2oc3cc(O)c(CCC(C)C)c(O)c3c(=O)c2c(CCC(C)C)c1OC ; endpoint: MIC ; read by: resazurin ; strain: M-4 ; result: 1.56 µg/mL
CCCN(CCC)C(=O)OCC[N+](CC)(CC)CC.[I-] ; endpoint: MIC ; strain: H37Rv ; result: >100 µg/mL
CC(C)(C)c1ccc(CSc2nc(=O)[nH]c3nc[nH]c23)cc1 ; endpoint: MIC ; strain: H37Ra ; result: >12.8 µg/mL

6 of the rows above, restated:

SMILES | endpoint | read by | strain | tested at | changes | result
O=c1[nH]c2c(Cl)c(Cl)ccc2c(O)c1N=Nc1cccc(Cl)c1 | inhibition | resazurin | H37Rv | 6.25 µg/mL |  | 82%
CO[C@H]1/C=C/O[C@@]2(C)Oc3c(C)c(O)c4c(O)c(c(/C=N/N5CCN(C)CC5)c(O)c4c3C2=O)NC(=O)/C(C)=C\C=C\[C@H](C)[C@H](O)[C@@H](C)[C@@H](O)[C@@H](C)[C@H](OC(C)=O)[C@@H]1C | MIC | resazurin | M-3 |  |  | >2 µg/mL
CC(C)(C)c1ccc(CSc2nc(=O)[nH]c3nc[nH]c23)cc1 | MIC |  | H37Ra |  |  | >12.8 µg/mL
COc1ccc(/C=C/C(=O)c2ccccn2)cc1 | MIC |  | H37Rv |  |  | >12.5 µg/mL
O=C1c2ccccc2C(=O)c2ccccc21 | MIC |  | H37Rv |  |  | >100 µg/mL
COc1ccc2nc(-c3cccc(Cl)c3)ccc2c1 | MIC |  | H37Rv |  |  | 100 µg/mL